Pooled drug test results. Numbers come from NIAID ChemDB, via PubChem.

Common to all: growth or infection tests; agent: Human cytomegalovirus

Rows are shuffled and stem from different studies. ECn: concentration that inhibits the pathogen or its effect by n%.

{"structure": "O[C@@H]1[C@H](O)CO[C@H]1n1c(Cl)nc2cc(Cl)c(Cl)cc21", "strain or isolate": "TOWNE", "cells": "HFF", "endpoint": "EC90", "read by": "virus yield", "result": "0.41 µM"}
{"structure": "CCc1cn([C@@H]2O[C@H](CO)[C@@H](O)[C@@H]2O)c(=S)nc1N", "strain or isolate": "AD169", "cells": "MRC-5", "endpoint": "EC50", "read by": "plaque count", "result": ">264.9 µM"}
{"structure": "CCOC(=O)/C=C\\C=C\\[C@H]1O[C@@H](n2ccc(=O)[nH]c2=O)[C@H](O)[C@@H]1O", "strain or isolate": "AD169", "cells": "HEL", "endpoint": "EC50", "result": "10 µM"}
{"structure": "O=C(NCc1ccc(Cl)cc1)c1c[nH]c2c(F)cccc2c1=O", "strain or isolate": "GDGrP53", "endpoint": "EC50", "read by": "plaque count", "result": "3.1 µM"}
{"structure": "OC[C@H]1O[C@@H](n2c(Br)nc3cc(Cl)c(Cl)cc32)[C@H](O)[C@@H]1O", "strain or isolate": "Toledo", "cells": "HFF", "endpoint": "EC50", "read by": "plaque count", "result": "1.1 µM"}
{"structure": "CN(C)c1cccc2c(S(=O)(=O)Nc3ccc(NC(=O)C(C)(C)CO)cc3)cccc12", "strain or isolate": "C4 (BDCRB-resistant)", "cells": "HFF", "endpoint": "EC50", "read by": "plaque count", "result": "2.1 µM"}
{"structure": "Cn1cc(C(=O)NCc2ccc(Cl)cc2)c(=O)c2cc(CN3CCOCC3)ccc21", "strain or isolate": "C8805/37-1-1 (ganciclovir-resistant)", "cells": "HFF", "endpoint": "EC50", "read by": "plaque count", "result": "3 µM"}
{"structure": "CN(C)c1cccc2c(S(=O)(=O)Nc3ccc(NC(=O)C(C)(C)CO)cc3)cccc12", "strain or isolate": "AD169", "endpoint": "EC50", "read by": "plaque count", "result": "0.52 µM"}
{"structure": "OC[C@H]1O[C@@H](n2c(Br)nc3cc(Cl)c(Cl)cc32)[C@H](O)[C@@H]1O", "strain or isolate": "1038RB 8-3-3 (plaque-purified 1038RB strain)", "cells": "MRC-5", "endpoint": "EC50", "read by": "plaque count", "result": "18 µM"}
{"structure": "Nc1nc2c(ncn2C[C@@H]2CC[C@@H](P(=O)(O)O)O2)c(=O)[nH]1", "strain or isolate": "D-10 C4 (BDCRB-resistant)", "cells": "HFF", "endpoint": "EC50", "read by": "plaque count", "result": "0.07 µg/mL"}
{"structure": "CCCCCCCCCCCCCCCCCCOCCOP1(=O)CO[C@@H](Cn2ccc(N)nc2=O)CO1", "strain or isolate": "C9208/3-3-1", "cells": "MRC-5", "endpoint": "EC50", "read by": "plaque count", "result": "0.001 µM"}
{"structure": "Nc1nc(NC2CC2)c2ncn(C=C3CC3CO)c2n1", "strain or isolate": "759rD100", "cells": "HFF", "endpoint": "EC50", "read by": "plaque count", "result": "16.9 µM"}
{"structure": "Nc1nc2c(ncn2COC(CO)CO)c(=O)[nH]1", "strain or isolate": "AD169", "cells": "HFF", "endpoint": "EC50", "read by": "plaque count", "result": "4.3 µM"}
{"structure": "O=C1c2ccccc2C(=O)N1[C@@H]1CC2CC3CC(C2)C1C3", "strain or isolate": "DAVIS", "cells": "HEL", "endpoint": "EC50", "read by": "plaque count", "result": ">100 µg/mL"}
{"structure": "Nc1nc2c(ncn2C=C2CC2CO)c(=O)[nH]1", "strain or isolate": "TOWNE", "cells": "HFF", "endpoint": "EC50", "read by": "plaque count", "result": "11.6 µM"}
{"structure": "C[C@@H]1O[C@@H](n2c(Cl)nc3cc(Cl)c(Cl)cc32)[C@H](O)[C@@H]1O", "strain or isolate": "2916 (bdcrb maribavir-resistant)", "cells": "HFF", "endpoint": "EC50", "read by": "virus yield", "result": "0.7 µM"}
{"structure": "Cc1ccccc1CSCc1cnc2c(Br)cc(Br)c(C)n12", "strain or isolate": "AD169", "cells": "HEL", "endpoint": "EC50", "read by": "plaque count", "result": ">50 µg/mL"}
{"structure": "O=C(NCc1ccc(Cl)cc1)c1c[nH]c2ccc(C#CCO)cc2c1=O", "strain or isolate": "GDGrP53", "endpoint": "EC90", "read by": "plaque count", "result": "3 µM"}
{"structure": "O=c1[nH]c(=S)n([C@@H]2O[C@H](CO)[C@@H](O)[C@@H]2O)cc1/C=C/Br", "strain or isolate": "93-1R", "cells": "MRC-5", "endpoint": "EC50", "read by": "plaque count", "result": ">213 µM"}
{"structure": "Nc1ccn(C[C@H]2COP(=O)(O)CO2)c(=O)n1", "strain or isolate": "Coffman", "cells": "MRC-5", "endpoint": "EC50", "read by": "plaque count", "result": "1.2 µM"}
{"structure": "Cc1c(Br)cc(Br)c2ncc(CSCc3ccccc3F)n12", "strain or isolate": "DAVIS", "cells": "HEL", "endpoint": "EC50", "read by": "plaque count", "result": ">5 µg/mL"}
{"structure": "Cc1nc2ccccn2c1NC(=O)c1ccccc1", "strain or isolate": "DAVIS", "cells": "HEL", "endpoint": "EC50", "read by": "cytopathic effect", "result": ">50 µg/mL"}
{"structure": "CC(C)Nc1nc2cc(Cl)c(Cl)cc2n1[C@H]1O[C@@H](CO)[C@H](O)[C@@H]1O", "strain or isolate": "AD169", "cells": "HFF", "endpoint": "EC50", "read by": "plaque count", "result": "2.2 µM"}
{"structure": "Nc1nc2c(ncn2COC(CO)CO)c(=O)[nH]1", "strain or isolate": "VR6200 (ganciclovir-susceptible)", "endpoint": "EC90", "read by": "plaque count", "result": "4.1 µM"}
{"structure": "OC[C@H]1O[C@@H](n2c(Cl)nc3cc(Cl)c(Cl)cc32)[C@H](O)[C@@H]1O", "strain or isolate": "C4 (D341E)", "endpoint": "EC50", "read by": "virus yield", "result": "<25 µM"}
{"structure": "O[C@@H]1[C@H](O)[C@H](O)CO[C@H]1n1c(Br)nc2cc(Cl)c(Cl)cc21", "strain or isolate": "TOWNE", "cells": "HFF", "endpoint": "EC50", "read by": "plaque count", "result": "5.2 µM"}
{"structure": "CCCCCCCCCCCCCCCCOP(=O)(O)CO[C@H](CO)Cn1ccc(N)nc1=O", "strain or isolate": "AD169", "cells": "HFF", "endpoint": "EC50", "read by": "plaque count", "result": "0.005 µM"}
{"structure": "Nc1nc2c(ncn2/C=C2/CC2(CO)CO)c(=O)[nH]1", "strain or isolate": "Toledo", "cells": "HFF", "endpoint": "EC50", "read by": "plaque count", "result": "1.3 µM"}
{"structure": "CC(C)Nc1nc2cc(Cl)c(Cl)cc2n1[C@H]1O[C@@H](CO)[C@H](O)[C@@H]1O", "strain or isolate": "XBAF.4 (alaalacysarg593DEL)", "cells": "MRC-5", "endpoint": "EC50", "read by": "hybridisation", "result": "0.03 µM"}
{"structure": "CC/C=C\\Cn1c(=O)sc2c(=O)[nH]c(N)nc21", "strain or isolate": "TOWNE", "endpoint": "EC50", "read by": "plaque count", "result": "0.56 µM"}
{"structure": "Cn1cc(C(=O)NCc2ccc(Cl)cc2)c(=O)c2cc(CN3CCOCC3)ccc21", "strain or isolate": "A", "cells": "HFF", "endpoint": "EC50", "read by": "plaque count", "result": "1.1 µM"}
{"structure": "CCc1cn([C@@H]2O[C@H](CO)[C@@H](O)[C@@H]2O)c(=S)[nH]c1=O", "strain or isolate": "93-1R", "cells": "MRC-5", "endpoint": "EC50", "read by": "plaque count", "result": ">213 µM"}
{"structure": "Nc1ncnc2c1ncn2/C=C1/C[C@H]1CO", "strain or isolate": "AD169", "cells": "HFF", "endpoint": "EC50", "read by": "cytopathic effect", "result": "1.9 µM"}
{"structure": "Nc1ccn(C[C@@H](CO)OCP(=O)(O)O)c(=O)n1", "strain or isolate": "TOWNE", "cells": "HFF", "endpoint": "EC50", "read by": "plaque count", "result": "0.16 µg/mL"}
{"structure": "Nc1ccn(C[C@@H](CO)OCP(=O)(O)O)c(=O)n1", "strain or isolate": "AD169", "cells": "HEL", "endpoint": "EC50", "read by": "plaque count", "result": "0.38 µg/mL"}
{"structure": "OC[C@H]1O[C@@H](n2c(Br)nc3cc(Cl)c(Cl)cc32)[C@H](O)[C@@H]1O", "strain or isolate": "TOWNE", "cells": "HFF", "endpoint": "EC90", "read by": "virus yield", "result": "0.41 µM"}
{"structure": "CC(O)c1cn([C@@H]2O[C@H](CO)[C@@H](O)[C@@H]2O)c(=S)nc1N", "strain or isolate": "T-137", "cells": "MRC-5", "endpoint": "EC50", "read by": "plaque count", "result": "159.1 µM"}
{"structure": "COc1cccc(N2CCN(C3=Nc4c(F)cccc4[C@H](CC(=O)O)N3c3cc(C(F)(F)F)ccc3OC)CC2)c1", "strain or isolate": "RV-HG rGCV", "endpoint": "EC50", "read by": "plaque count", "result": "0.0039 µM"}
{"structure": "Cc1c(Br)cc(Br)c2ncc(CSCCc3ccccc3)n12", "strain or isolate": "DAVIS", "cells": "HEL", "endpoint": "EC50", "read by": "plaque count", "result": "2.3 µg/mL"}
{"structure": "O=C(NCc1ccc(Cl)cc1)c1cn2c3c(cc(CN4CCOCC4)cc3c1=O)OC(c1cccnc1)C2", "strain or isolate": "AD169", "cells": "HFF", "endpoint": "EC50", "read by": "plaque count", "result": "5.8 µM"}
{"structure": "Cc1cn([C@@H]2O[C@H](CO)[C@@H](O)[C@@H]2O)c(=S)nc1N", "strain or isolate": "93-1R", "cells": "MRC-5", "endpoint": "EC50", "read by": "plaque count", "result": ">264.9 µM"}
{"structure": "Nc1nc2c(ncn2COC(CO)CO)c(=O)[nH]1", "strain or isolate": "TOWNE", "cells": "HFF", "endpoint": "EC90", "read by": "virus yield", "result": "4.4 µM"}
{"structure": "CCCCCCCCCCCCCCCCOCCCOP(=O)(O)CO[C@H](CO)Cn1ccc(N)nc1=O", "strain or isolate": "DAVIS", "cells": "MRC-5", "endpoint": "EC50", "read by": "plaque count", "result": "0.00095 µM"}
{"structure": "Cc1c(Br)cc(Br)c2ncc(CSCCCc3ccccc3)n12", "strain or isolate": "DAVIS", "cells": "HEL", "endpoint": "EC50", "read by": "plaque count", "result": "2.3 µg/mL"}
{"structure": "Nc1nc2c(ncn2[C@H]2C=C[C@@H](CO)[C@H](O)C2)c(=O)[nH]1", "strain or isolate": "DAVIS", "endpoint": "EC50", "result": "3.97 µg/mL"}
{"structure": "Nc1nc2c(ncn2COC(CO)CO)c(=O)[nH]1", "strain or isolate": "C9003", "cells": "MRC-5", "endpoint": "EC50", "read by": "hybridisation", "result": "1.1 µM"}
{"structure": "CCCCCCCC/C=C\\CCCCCCCCOCCOP(=O)(O)CO[C@H](CO)Cn1ccc(N)nc1=O", "strain or isolate": "TOWNE", "cells": "HFF", "endpoint": "EC50", "read by": "plaque count", "result": "0.002 µM"}
{"structure": "Nc1ccn(C[C@@H](CO)OCP(=O)(O)O)c(=O)n1", "strain or isolate": "LY9990 (ganciclovir-resistant)", "cells": "HEL", "endpoint": "EC50", "read by": "plaque count", "result": "0.57 µM"}
{"structure": "O=C1c2cccc([N+](=O)[O-])c2C(=O)N1C1C2CC3CC(C2)CC1C3", "strain or isolate": "DAVIS", "cells": "HEL", "endpoint": "EC50", "read by": "plaque count", "result": ">100 µg/mL"}
{"structure": "OC[C@H]1O[C@@H](n2c(Br)nc3cc(Cl)c(Cl)cc32)[C@H](O)[C@@H]1O", "strain or isolate": "AD169", "cells": "HFF", "endpoint": "EC90", "read by": "virus yield", "result": "2 µM"}
{"structure": "CCCCCCCCCCCCCCCCCCOC[C@H](COP(=O)(O)CO[C@H](CO)Cn1ccc(N)nc1=O)OCc1ccccc1", "strain or isolate": "Toledo", "cells": "HFF", "endpoint": "EC50", "read by": "plaque count", "result": "0.006 µM"}
{"structure": "COC(=O)C12CC3CC(C1)CC(N1C(=O)c4ccccc4C1=O)(C3)C2", "strain or isolate": "DAVIS", "cells": "HEL", "endpoint": "EC50", "read by": "plaque count", "result": ">20 µg/mL"}
{"structure": "CC(C)(C)c1nc2ccccn2c1NC(=O)Nc1ccccc1", "strain or isolate": "DAVIS", "cells": "HEL", "endpoint": "EC50", "read by": "cytopathic effect", "result": "32 µg/mL"}
{"structure": "O=C(O)P(=O)(O)O", "strain or isolate": "AD169", "cells": "HEL", "endpoint": "EC50", "read by": "plaque count", "result": "61.6 µM"}
{"structure": "Cc1cccn2c(CSCc3ccccc3)cnc12", "strain or isolate": "AD169", "cells": "HEL", "endpoint": "EC50", "read by": "plaque count", "result": "0.2 µg/mL"}
{"structure": "Nc1ccn(C[C@@H](CO)OCP(=O)(O)O)c(=O)n1", "strain or isolate": "AD169", "cells": "HFF", "endpoint": "EC50", "read by": "plaque count", "result": "0.4 µM"}

A second listing of 3 rows from above:

{"structure": "CCOC(=O)/C=C\\C=C\\[C@H]1O[C@@H](n2ccc(=O)[nH]c2=O)[C@H](O)[C@@H]1O", "strain or isolate": "AD169", "cells": "HEL", "endpoint": "EC50", "result": "10 µM"}
{"structure": "O[C@@H]1[C@H](O)CO[C@H]1n1c(Cl)nc2cc(Cl)c(Cl)cc21", "strain or isolate": "TOWNE", "cells": "HFF", "endpoint": "EC90", "read by": "virus yield", "result": "0.41 µM"}
{"structure": "CC(O)c1cn([C@@H]2O[C@H](CO)[C@@H](O)[C@@H]2O)c(=S)nc1N", "strain or isolate": "T-137", "cells": "MRC-5", "endpoint": "EC50", "read by": "plaque count", "result": "159.1 µM"}